Results of unrelated studies side by side (data: NIAID ChemDB).

Shared fields: tests on isolated targets

Inhibition is in % at the dose shown (toxicity tests: loss of growth or viability).

structure,protein,measure,tested at,organism,read by,changes,strain,result
CN(CC(C)(CCN1CCC(N(CCO)C(=O)OCc2ccc([N+](=O)[O-])cc2)CC1)c1ccsc1)S(=O)(=O)c1ccccc1,CCR5,IC50,,,radiometric,CCR5-E283A,,>10 µM
O=C(O)c1sc(-c2ccccc2)cc1NS(=O)(=O)c1ccc(Br)cc1,NS3 ATPase,IC50,,Hepatitis C virus,,,,<5 µM
O=C(Nc1ccsc1-c1nc(C(=O)O)c(O)c(=O)[nH]1)OCC1CCOC1,HCV polymerase,IC50,,Hepatitis C virus,,,,<25 µM
COc1cc(/C=C2/SC(=S)N(NS(=O)(=O)c3ccccc3)C2=O)ccc1F,NS5B polymerase,IC50,,Hepatitis C virus,,,,≤30 µM
Cc1c(Sc2ccccc2)n(COCCO)c(=O)[nH]c1=O,Reverse transcriptase,fold resistance,,HIV,,RT-K103N Y188L,,>10
c1cncnc1,Uracil phosphoribosyltransferase,inhibition,2000 µM,Toxoplasma gondii,,,RH,<5%
Cc1ccc(S(=O)(=O)Nc2cc(-c3ccsc3)sc2C(=O)O)cc1,NS3 ATPase,IC50,,Hepatitis C virus,,,,5–20 µM
O=C(O)c1nc(-c2cc(OCc3ccccc3)cs2)[nH]c(=O)c1O,HCV polymerase,IC50,,Hepatitis C virus,,,,<25 µM
Nc1nccc(=O)[nH]1,Phosphoribosyltransferase,Ki,,Toxoplasma gondii,,,RH,1060 µM
N#Cc1ccc(/C=C2/SC(=S)N(NS(=O)(=O)c3ccccc3)C2=O)cc1,NS5B polymerase,IC50,,Hepatitis C virus,,,,≤30 µM
CSc1ccccc1NC(=O)Nc1cccc(-c2nc(C(=O)O)c(O)c(=O)[nH]2)c1,HCV polymerase,IC50,,Hepatitis C virus,,,,<100 µM
CC(C)C(=O)N(Cc1ccc(C(F)(F)F)cc1)c1cc(-c2ccccc2)sc1C(=O)O,NS3 ATPase,IC50,,Hepatitis C virus,,,,5–20 µM
CC(C)C(=O)N1C[C@H](CN2CCC(c3ccccc3)CC2)[C@@H](c2ccccc2)C1,CCR5,fold resistance,,,radiometric,CCR5-Y251A,,81.7
O=C(/C=C/c1ccccc1)Nc1nnc(NCCSc2ccccc2)s1,Polymerase,IC50,,Human cytomegalovirus,,,,<25 µM
O=C(Nc1cccc(-c2nc(C(=O)O)c(O)c(=O)[nH]2)c1)c1ccc(Br)s1,HCV polymerase,IC50,,Hepatitis C virus,,,,<100 µM
C=CCN(C(=O)OCc1ccc([N+](=O)[O-])cc1)C1CCN(CC[C@](C)(CN(C)S(=O)(=O)c2ccccc2)c2ccccc2)CC1,CCR5,fold resistance,,,radiometric,CCR5-Y37A,,0.765
O=C(/C=C/c1ccccc1Cl)Nc1nnc(NCc2cccc3ccccc23)s1,Polymerase,IC50,,Human cytomegalovirus,,,,>25 µM
O=C(Nc1cccc(-c2nc(C(=O)O)c(O)c(=O)[nH]2)c1)Nc1ccc(F)c([N+](=O)[O-])c1,HCV polymerase,IC50,,Hepatitis C virus,,,,<100 µM
O=C(O)C(Cl)(Br)P(=O)(O)O,DNA polymerase,inhibition,100 µM,Epstein-Barr virus,,,,33%
COc1cc(OC)c(C=C2SC(=O)N(CC(=O)N3CCN(c4ccccc4)CC3)C2=O)c(OC)c1,Falcipain-2,IC50,,Plasmodium falciparum,fluorescence,,,>50 µM
O=C1/C(=C\c2ccc(Cl)c(Cl)c2)SC(=S)N1NS(=O)(=O)c1ccccc1Cl,NS5B polymerase,IC50,,Hepatitis C virus,,,,≤30 µM
O=P(O)(O)C(F)P(=O)(O)O,DNA polymerase,IC50,,Herpes simplex virus 2,,,,>100 µM
O=c1cc(Cc2ccccc2)[nH]c(=O)[nH]1,Uracil phosphoribosyltransferase,inhibition,2000 µM,Toxoplasma gondii,,,RH,<5%
Cc1ccccc1S(=O)(=O)Nc1cc(-c2cccc([N+](=O)[O-])c2)sc1C(=O)O,NS3 ATPase,IC50,,Hepatitis C virus,,,,<5 µM
Cc1cccc(/C=C2/SC(=S)N(NS(=O)(=O)c3ccccc3)C2=O)c1,NS5B polymerase,IC50,,Hepatitis C virus,,,,≤30 µM
O=P(O)(O)C(Br)P(=O)(O)O,DNA polymerase,IC50,,Herpes simplex virus 2,,,,>100 µM
CCCCCCCC/C=C/CCCCCCCC(=O)Nc1nnc(NCCCCc2ccccc2)s1,Polymerase,IC50,,Human cytomegalovirus,,,,<25 µM
C[n+]1cc2nccnc2[n+](C)c1,Phosphoribosyltransferase,inhibition,900 µM,Toxoplasma gondii,,,RH,<10%
Cn1c(=O)cc[nH]c1=O,Uracil phosphoribosyltransferase,IC50,,Toxoplasma gondii,,,RH,>2000 µM
CC(C)N(C(=O)c1ccc(Cl)cc1Cl)c1cc(Br)sc1C(=O)O,NS3 ATPase,IC50,,Hepatitis C virus,,,,<5 µM
O=C(Nc1cscc1-c1nc(C(=O)O)c(O)c(=O)[nH]1)NS(=O)(=O)c1cc(Cl)cc(Cl)c1,HCV polymerase,IC50,,Hepatitis C virus,,,,<25 µM
CN1Cc2[nH]cnc2N=C1N,Phosphoribosyltransferase,Ki,,Toxoplasma gondii,,,RH,730 µM
C=CCN(C(=O)CCCC)c1cc(-c2ccccc2)sc1C(=O)O,NS3 ATPase,IC50,,Hepatitis C virus,,,,5–20 µM
S=c1[nH]c(=S)c2[nH]cnc2[nH]1,Phosphoribosyltransferase,Ki,,Toxoplasma gondii,,,RH,300 µM
COc1ccc(NC(=O)Nc2cccc(-c3nc(C(=O)O)c(O)c(=O)[nH]3)c2)cc1,HCV polymerase,IC50,,Hepatitis C virus,,,,<100 µM
O=C(O)Cc1cc(=O)[nH]c(=O)[nH]1,Uracil phosphoribosyltransferase,inhibition,2000 µM,Toxoplasma gondii,,,RH,<5%
CC(F)(C(=O)O)P(=O)(O)O,DNA polymerase,IC50,,Epstein-Barr virus,,,,>100 µM
O=C(Cc1ccc2ccccc2c1)Nc1ccsc1-c1nc(C(=O)O)c(O)c(=O)[nH]1,HCV polymerase,IC50,,Hepatitis C virus,,,,<25 µM
O=C1CC(=O)NC(=S)N1,Uracil phosphoribosyltransferase,IC50,,Toxoplasma gondii,,,RH,>2000 µM
COC(=O)c1nc(-c2sccc2NC(=O)OCc2cccc(C)c2)[nH]c(=O)c1O,HCV polymerase,IC50,,Hepatitis C virus,,,,<50 µM
O=C(O)c1sc(-c2ccccc2)cc1NS(=O)(=O)c1ccc(Cl)c(Cl)c1,NS3 ATPase,IC50,,Hepatitis C virus,,,,5–20 µM
COc1cc(OC)c(C=C2SC(=O)N(Cc3ccc(C(F)(F)F)cc3)C2=O)c(OC)c1,Falcipain-2,IC50,,Plasmodium falciparum,fluorescence,,,>50 µM
O=C1CC(=O)NC(=O)N1,Uracil phosphoribosyltransferase,inhibition,2000 µM,Toxoplasma gondii,,,RH,<5%
COc1cc(OC)c(C=C2SC(=O)N(CC(=O)N3CCN(c4ccncc4)CC3)C2=O)c(OC)c1,Falcipain-2,IC50,,Plasmodium falciparum,fluorescence,,,>50 µM
Cc1cc(=O)[nH]c(=S)[nH]1,Uracil phosphoribosyltransferase,Ki,,Toxoplasma gondii,,,RH,1900 µM
c1ncc2[nH]cnc2n1,Phosphoribosyltransferase,IC50,,Toxoplasma gondii,,,RH,>900 µM
O=C(CN1C(=O)SC(=Cc2cc(C(F)(F)F)ccc2C(F)(F)F)C1=O)N1CCN(c2ccccc2)CC1,Falcipain-2,IC50,,Plasmodium falciparum,fluorescence,,,35.28 µM
CC(C)c1cc(C(C)C)c(C(=O)Nc2nnc(NCCC(=O)OC(C)(C)C)s2)c(C(C)C)c1,Polymerase,IC50,,Human cytomegalovirus,,,,>25 µM
CC(Cl)(C(=O)O)P(=O)(O)O,DNA polymerase,inhibition,100 µM,Epstein-Barr virus,,,,44%
O=c1[nH]ncc2n[nH]nc12,Phosphoribosyltransferase,inhibition,900 µM,Toxoplasma gondii,,,RH,<10%
O=C(O)C(Br)P(=O)(O)O,DNA polymerase,IC50,,Herpes simplex virus 2,,,,5.4 µM
CC(C)c1cccc(C=C2SC(=O)N(CC(=O)N3CCN(c4ccccc4)CC3)C2=O)c1,Falcipain-2,IC50,,Plasmodium falciparum,fluorescence,,,23.89 µM
O=C(O)C(F)(F)P(=O)(O)O,DNA polymerase,IC50,,Herpes simplex virus 2,,,,30 µM
O=C1/C(=C\c2ccc3c(c2)OC(F)(F)O3)SC(=S)N1NS(=O)(=O)c1ccccc1,NS5B polymerase,IC50,,Hepatitis C virus,,,,≤30 µM
CO[P@](=O)(c1cc(C)cc(/C=C/C#N)c1)c1c(C(N)=O)[nH]c2ccc(Cl)cc12,Reverse transcriptase,IC50,,HIV,,E138K,,2.99 µM
O=C(O)C(F)(Br)P(=O)(O)O,DNA polymerase,IC50,,Epstein-Barr virus,,,,94 µM

For reference, 5 entries again:

structure | protein | measure | tested at | organism | read by | changes | strain | result
O=C1/C(=C\c2ccc3c(c2)OC(F)(F)O3)SC(=S)N1NS(=O)(=O)c1ccccc1 | NS5B polymerase | IC50 |  | Hepatitis C virus |  |  |  | ≤30 µM
COC(=O)c1nc(-c2sccc2NC(=O)OCc2cccc(C)c2)[nH]c(=O)c1O | HCV polymerase | IC50 |  | Hepatitis C virus |  |  |  | <50 µM
COc1cc(OC)c(C=C2SC(=O)N(CC(=O)N3CCN(c4ccncc4)CC3)C2=O)c(OC)c1 | Falcipain-2 | IC50 |  | Plasmodium falciparum | fluorescence |  |  | >50 µM
CCCCCCCC/C=C/CCCCCCCC(=O)Nc1nnc(NCCCCc2ccccc2)s1 | Polymerase | IC50 |  | Human cytomegalovirus |  |  |  | <25 µM
COc1cc(OC)c(C=C2SC(=O)N(CC(=O)N3CCN(c4ccccc4)CC3)C2=O)c(OC)c1 | Falcipain-2 | IC50 |  | Plasmodium falciparum | fluorescence |  |  | >50 µM

Blank or dashed fields: not listed here. Lines come from different laboratories, so protocols vary. a–b is a range or a potency band. Fold resistance: result on the changed form divided by that on wild type. ICn is the concentration giving n% inhibition.